The values that follow come from publication PMC8351955, “Targeting Mycobacterium tuberculosis response to environmental cues for the development of effective antitubercular drugs” (PLoS Biology, 2021).

Structures are written as SMILES. “And” between values parts separate entries of the source, which are not always exact repeats. Equal values may be shown once.

For one data set, the system named is Mtb CDC1551. As to the kind of experiment: Intrabacterial drug accumulation assay (LC-MS). The following applies: for Accumulation in Mtb (Fig. S3A), individual replicates: Rep 1-3; for Accumulation in Mtb (Fig. S3A), Average: average of 3 replicates.
For the next data set, the system named is J774 cells. The experiment in a line: Intracellular drug accumulation assay in J774 cells (LC-MS). The following applies: uninfected; for Accumulation in host macrophages (Fig. S3B), individual replicates: Rep 1-3; for Accumulation in host macrophages (Fig. S3B), Average: average of 3 replicates.

For `CCSc1ncc(CN2CCN(c3nc4ccccc4o3)CC2)cn1` [C6, 2-(4-((2-(ethylthio)pyrimidin-5-yl)methyl)piperazin-1-yl)benzo[d]oxazole], in the data set on Mtb CDC1551 (Control medium), the “Accumulation in Mtb (Fig. S3A), individual replicates” value was 25.7254 pmol/106 cells and 25.933 pmol/106 cells and 26.2031 pmol/106 cells; the “Accumulation in Mtb (Fig. S3A), Average” value came to 25.9538 pmol/106 cells. For the same compound, in the data set with Mtb CDC1551 (High [Cl-]), the “Accumulation in Mtb (Fig. S3A), individual replicates” value was 21.9514 pmol/106 cells and 21.0856 pmol/106 cells and 23.0216 pmol/106 cells; the “Accumulation in Mtb (Fig. S3A), Average” value came to 22.0195 pmol/106 cells. For the same compound, in the data set on J774 cells, the “Accumulation in host macrophages (Fig. S3B), individual replicates” value was 12.198 nmol/106 cells and 14.0886 nmol/106 cells and 12.6294 nmol/106 cells; the “Accumulation in host macrophages (Fig. S3B), Average” value (from here on “Accumulation … (Fig. S3B), Average”) stood at 12.972 nmol/106 cells.

Turning to `CCSc1ccc(CN2CCN(c3nc4ccccc4o3)CC2)cc1` [JSF-4300, 2-(4-(4-(ethylthio)benzyl)piperazin-1-yl)benzo[d]oxazole], in the data set with Mtb CDC1551 (Control medium), the “Accumulation in Mtb (Fig. S3A), individual replicates” value was 37.8838 pmol/106 cells and 34.3335 pmol/106 cells and 35.5239 pmol/106 cells; the “Accumulation in Mtb (Fig. S3A), Average” value is given as 35.9137 pmol/106 cells. Moreover, in the data set on Mtb CDC1551 (High [Cl-]), the “Accumulation in Mtb (Fig. S3A), individual replicates” value was 31.0031 pmol/106 cells and 31.4711 pmol/106 cells and 27.9073 pmol/106 cells; the “Accumulation in Mtb (Fig. S3A), Average” value came to 30.1272 pmol/106 cells. Further, in the data set with J774 cells, the “Accumulation in host macrophages (Fig. S3B), individual replicates” value is 51.325 nmol/106 cells and 53.8156 nmol/106 cells and 57.9784 nmol/106 cells; the “Accumulation … (Fig. S3B), Average” value stood at 54.373 nmol/106 cells.

Consider `COc1ncc(CN2CCN(c3nc4ccccc4o3)CC2)cn1` [JSF-4271, 2-(4-((2-methoxypyrimidin-5-yl)methyl)piperazin-1-yl)benzo[d]oxazole], for which, in the data set on Mtb CDC1551 (Control medium), the “Accumulation in Mtb (Fig. S3A), individual replicates” value was 8.4476 pmol/106 cells and 9.657 pmol/106 cells and 10.6081 pmol/106 cells; the “Accumulation in Mtb (Fig. S3A), Average” value is 9.571 pmol/106 cells. Further, in the data set with Mtb CDC1551 (High [Cl-]), the “Accumulation in Mtb (Fig. S3A), individual replicates” value was 6.755 pmol/106 cells and 8.783 pmol/106 cells and 8.108 pmol/106 cells; the “Accumulation in Mtb (Fig. S3A), Average” value is on record as 7.882 pmol/106 cells. Further, in the data set on J774 cells, the “Accumulation in host macrophages (Fig. S3B), individual replicates” value is 1.55 nmol/106 cells and 1.455 nmol/106 cells and 1.434 nmol/106 cells; the “Accumulation … (Fig. S3B), Average” value stood at 1.48 nmol/106 cells.
